Data reported in publication PMC5286506, “M48U1 and Tenofovir combination synergistically inhibits HIV infection in activated PBMCs and human cervicovaginal histocultures” (Scientific Reports, 2017).

Assays:
R5-tropic HIV-1BaL = assay: HIV-1BaL infection of activated PBMCs, HIV-1 gag p24 ELISA on day 7; assay type: cell-based; conditions: 1 μM M48U1 or 5 μM tenofovir in 0.25% HEC
Experimental: (§1) Mock-infected PBMCs were used as the negative control.
(§2) The antiviral activity of each drug, M48U1 and tenofovir, formulated in 0.25% HEC hydrogel was determined in an activated PBMC model. […] This mixture was added to PBMCs activated with IL-2 and PHA for a two-hour incubation at 37 °C. To evaluate the antiviral effect of M48U1, the level of HIV-1 gag p24 protein in the culture supernatant was determined at seven days post-infection using an ELISA. A significant decrease (p < 0.05; Mann Whitney test) in the HIV-1 p24 level was found (Fig. 1).
(§3) Figure 1 M48U1 and tenofovir formulated in 0.25% HEC each inhibited the replication of both R5-tropic HIV-1BaL and X4-tropic HIV-1IIIb in activated PBMCs. […] After this incubation, these solutions were used to resuspend activated PBMCs for 2 hours at 37 °C. HIV-1 replication was monitored by a HIV-1 p24 ELISA assay on the cell culture supernatants performed on day 7 post-infection. […] Three experiments in triplicate were performed.

X4-tropic HIV-1IIIb = assay: HIV-1IIIb infection of activated PBMCs, HIV-1 gag p24 ELISA on day 7; assay type: cell-based; conditions: 1 μM M48U1 or 5 μM tenofovir in 0.25% HEC
Experimental: as §1, §2, §3

pREJO.c/2864 T/F IMC = assay: T/F IMC infection of TZM-bl cells, luciferase readout; assay type: cell-based, HIV-1; conditions: pREJO.c/2864, TZM-bl cells
Experimental: (§4) To analyze the inhibition of infection with HIV-1 T/F strains, a final concentration of 1 μM or 6.7 μM of M48U1 and 5 μM or 20 μM of tenofovir both in 0.25% HEC, were plated in triplicate in a 96-well flat bottom plate in 10% D-MEM containing 20 TCID50 of each T/F IMC (150 μL/well), and incubated for 1 hour at 37 °C. TZM-bl cells (1 × 10^4/well in a 100 μL volume) in 10% D-MEM growth medium containing DEAE-dextran (Sigma) at a final concentration of 7.5 μg/mL were then added to the plate. Assay controls included replicate wells of TZM-bl cells alone in HEC 0.25% (cell control) and TZM-bl cells with virus (virus control). Following 72 hours of incubation at 37 °C, 150 μL of culture medium were removed from each well and replaced with 100 μL of Bright-Glo luciferase reagent (Promega). After 2-minutes of incubation, 150 μL of the cell lysate were transferred to a 96-well white solid plate and luminescence was measured using a Victor Light 2030 luminometer (Perkin Elmer). […]
(§5) Figure 2 M48U1 in 0.25% HEC and tenofovir in 0.25% HEC each inhibited several laboratory strains and patient-derived HIV-1 isolates. […] The HIV-1 strain tropism was determined with a sequencing analysis for the patient-derived strains. […] HIV-1 replication was monitored by the HIV-1 p24 ELISA assay using cell culture supernatants obtained on day 7 post-infection. […]

pTHRO.c/2626 T/F IMC = assay: as above; assay type: cell-based, HIV-1; conditions: pTHRO.c/2626, TZM-bl cells
Experimental: as §4, §5

HIV-1BaL = assay: HIV-1BaL-infected cervicovaginal histoculture (EpiVaginal), proviral DNA qPCR; assay type: cell-based; conditions: 0.67 μM M48U1, 2 μM tenofovir or both in 0.25% HEC; day 4 post-infection; vs HEC-treated infected samples
[1] = test system: HIV-1BaL, HIV-1IIIb, HIV-1ADA, HIV-1RU132, HIV-1ARV-2, HIV-1CBL4; assay: Laboratory HIV-1 strains in activated PBMCs, p24 ELISA on day 7; assay type: cell-based; conditions: 1 μM M48U1 or 5 μM tenofovir in 0.25% HEC; p < 0.05
Experimental: as §1
(§6) Figure 2 M48U1 in 0.25% HEC and tenofovir in 0.25% HEC each inhibited several laboratory strains and patient-derived HIV-1 isolates. Treatment with either 1 μM M48U1/0.25% (A) or 5 μM tenofovir/0.25% HEC (B) inhibited the replication of all tested laboratory and patient-derived strains. The HIV-1 strain tropism was determined with a sequencing analysis for the patient-derived strains. The combination of the two HIV-1 drugs inhibited HIV-1 replication independent of the HIV-1 strain tropism. HIV-1 replication was monitored by the HIV-1 p24 ELISA assay using cell culture supernatants obtained on day 7 post-infection. […] Three experiments in triplicate were performed. Analysis of antiretroviral activity of 1 μM M48U1 in 0.25% HEC (C) or 5 μM tenofovir in 0.25% HEC (D) performed in TZM-bl cells infected with pREJO.c/2864 and pTHRO.c/2626 T/F IMCs. […] Each sample was performed in triplicate and was repeated in three independent experiments.

[2] = test system: HIV-1 subtype B and C isolates (HIV-1AMBR5N, HIV-1FBR5N, HIV-1SLR5N, HIV-1ARR5X4, HIV-1CSBX4); assay: Patient-derived HIV-1 isolates in activated PBMCs, p24 ELISA on day 7; assay type: cell-based; conditions: 1 μM M48U1 (five isolates) or 5 μM tenofovir (three isolates from naïve patients) in 0.25% HEC; p < 0.05
Experimental: as §1, §6

EpiVaginal tissue model [3] = conditions: 20 μM tenofovir and/or 6.7 μM M48U1 in 0.25% HEC
[4] = parameters: method as in PMID 23236282, PMID 25645853; conditions: cited from earlier work
[5] = parameters: method as in PMID 23236282, PMID 25645853; conditions: cited from earlier work; remark: listed apart in the source
SHIV-1_162P3 = test system: SHIV-1_162P3; parameters: method as in PMID 23236282; conditions: M48U1 vaginal gel, Cynomolgus macaques; cited from earlier work
in vitro = conditions: human
gp120 = conditions: higher than gp120 binding soluble CD4; cited from earlier work
EpiVaginal tissue model [6] = assay: LDH release in the EpiVaginal tissue model; conditions: 20 μM tenofovir and/or 6.7 μM M48U1 in 0.25% HEC
[7] = MTT tissue viability in the EpiVaginal tissue model; conditions: human
[8] = 1 μM M48U1 or 5 μM tenofovir in 0.25% HEC
[9] = 6.7 μM M48U1 or 20 μM tenofovir in 0.25% HEC

CC(C)C[C@@H]1NC(=O)CNC(=O)[C@H](CC(C)C)NC(=O)[C@H](CO)NC(=O)[C@H](CCCCN)NC(=O)[C@@H]2CSSC[C@@H](C(=O)N[C@H](C(N)=O)C(C)C)NC(=O)[C@H](C)NC(=O)[C@@H]3CSSC[C@H](NC(=O)[C@H](Cc4ccccc4)NC(=O)[C@H](Cc4cnc[nH]4)NC(=O)[C@H](CC(C)C)NC(=O)[C@H](CC(N)=O)NC(=O)CCSSC[C@H](NC(=O)[C@H](CCCNC(=N)N)NC(=O)CNC(=O)[C@H](CC(C)C)NC1=O)C(=O)N[C@@H](C)C(=O)N1CCC[C@@H]1C(=O)N[C@@H]([C@@H](C)O)C(=O)N[C@@H](Cc1ccc(OCC4CCCCC4)cc1)C(=O)N3)C(=O)N[C@@H](CCC(N)=O)C(=O)N[C@@H](CC(C)C)C(=O)N[C@@H](CCCNC(=N)N)C(=O)N2 [M48U1]
inhibition of HIV-1BaL replication (R5-tropic HIV-1BaL): over 90%
inhibition of HIV-1IIIb replication (X4-tropic HIV-1IIIb): over 90%
reduction in viral replication (pREJO.c/2864 T/F IMC; [8]): 96.7%
reduction in viral replication (pREJO.c/2864 T/F IMC; [9]): 96.6%
reduction in viral replication (pTHRO.c/2626 T/F IMC; [8]): 95%
reduction in viral replication (pTHRO.c/2626 T/F IMC; [9]): 95%
decrease in the amount of proviral HIV-1 DNA (folds of inhibition, mean) (HIV-1BaL): 7 fold
replication of laboratory HIV-1 strains (p24 in cell supernatant) [1]: suppressed the replication of all HIV-1 strains tested
infection of PBMCs with patient-derived HIV-1 subtype B and C isolates [2]: prevented infection of PBMCs with all HIV-1 subtype B and C isolates
IL-1α Release (EpiVaginal tissue model [3]; 1 hour): 8.0 ± 1.0 pg/mL
IL-1α Release (EpiVaginal tissue model [3]; 4 hours): 10.5 ± 1.1 pg/mL
IL-1α Release (EpiVaginal tissue model [3]; 18 hours): 33.8 ± 5.4 pg/mL
IL-1α Release (EpiVaginal tissue model [3]; 96 hours): 62.2 ± 9.3 pg/mL
stability in vaginal fluids [4]: stable
solubility at acidic pH [5]: very soluble
SHIV-1_162P3 infection (SHIV-1_162P3): prevented
CC50 at 7 day (in vitro): > 10 µM
affinity for gp120 relative to soluble CD4 (titer binding) (gp120): 100 fold
LDH release (Abs) (EpiVaginal tissue model [6]; 1 hour): 0.222 ± 0.05 Abs
LDH release (Abs) (EpiVaginal tissue model [6]; 4 hours): 0.364 ± 0.01 Abs
LDH release (Abs) (EpiVaginal tissue model [6]; 18 hours): 0.996 ± 0.2 Abs
LDH release (Abs) (EpiVaginal tissue model [6]; 96 hours): 1.544 ± 0.15 Abs
viability at 1 hour, 6.7 μM [7]: 98%
viability at 4 hours, 6.7 μM [7]: 98%
viability at 18 hours, 6.7 μM [7]: 89%
viability at 96 hours, 6.7 μM [7]: 91%

Where two headings read alike, the source gives them in different places.
